## Sequence variants of PSTVd loop 6 after infection

The pool varies loop 6 of the PSTVd intermediate strain in the pattern UNNNCGNNNG; wild type is UGACCGCGAG (upper and lower strand joined, each 5' to 3', the first 5 letters being the upper strand, closing pairs included).

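A pool of all variants was put on leaves of three Nicotiana benthamiana plants. Progeny were sequenced from the inoculated region (day 5), the margin of the inoculated leaf (day 10) and systemic leaves (day 12).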

Numbers give reads per thousand; 0 = not seen among the reads, higher = more abundant.
Each value is the mean of three plants.
"Pool" is the share in the plasmid pool used as inoculum, on the same scale.
The inoculated region was read from the minus strand, the other sites from the plus strand.
IR is the inoculated region, LM the leaf margin, Sys the systemic leaves.

UCUACGUUAG (pool 0.366) gave IR 0.0418; LM 0.0169; Sys 0. UGUUCGCGAG (pool 0.431) read IR 0.318; LM 0.877; Sys 0.0801. For UUACCGUAUG (pool 0.157) the result was IR 0.192; LM 0.0615; Sys 0. For UCGCCGAAUG (pool 0.275) the result was IR 0.118; LM 0; Sys 0.00684. For UCACCGGCCG (pool 0.144) the result was IR 0.137; LM 0.0232; Sys 0. UAGGCGUACG (pool 0.353) gave IR 0.0774; LM 0.0155; Sys 0.00684. UUAUCGGAGG (pool 0.222) gave IR 0.0721; LM 0.00773; Sys 0.

For UUUCCGUACG (pool 0.340) the result was IR 0.109; LM 0.0155; Sys 0. With UCGUCGUGUG (pool 0.144) the assay gave IR 0.0771; LM 0; Sys 0. UGCUCGUAUG (pool 0.288) read IR 0.101; LM 0.0736; Sys 0. For UGGACGUCCG (pool 0.222) the result was IR 0.143; LM 0; Sys 0. UUCUCGGGGG (pool 0.183) gave IR 0.108; LM 0; Sys 0. UGCGCGUUGG (pool 0.209) read IR 0.120; LM 0; Sys 0. For UUGCCGGUAG (pool 0.418) the result was IR 0.0944; LM 0; Sys 0.

For UAUGCGGAAG (pool 0.105) the result was IR 0.0784; LM 0.00920; Sys 0. With UCGUCGCUGG (pool 0.170) the assay gave IR 0.114; LM 0.00773; Sys 0. UCAACGAGCG (pool 0.196) gave IR 0.536; LM 0.0752; Sys 0. For UGGACGGUUG (pool 0.183) the result was IR 0.0896; LM 0; Sys 0. With UGAGCGUACG (pool 0.222) the assay gave IR 0.0483; LM 0; Sys 0. With UAGACGGUCG (pool 0.222) the assay gave IR 0.0943; LM 0.00773; Sys 0. For UUUACGGGGG (pool 0.0784) the result was IR 0.0835; LM 0.0169; Sys 0.

UAUUCUGUGG (pool 0.0131) read IR 0; LM 0; Sys 0. UUGGCGUGUG (pool 0.445) gave IR 0.0822; LM 0; Sys 0. UAACCGCUUG (pool 0.157) read IR 0.142; LM 0.0247; Sys 0. UCGACGACUG (pool 0.392) gave IR 0.0783; LM 0; Sys 0. UUCUCGAGGG (pool 0.209) gave IR 0.0836; LM 0.00773; Sys 0. With UACGCGAAUG (pool 0.314) the assay gave IR 0.0710; LM 0; Sys 0. For UGACUGACGG (pool 0.0261) the result was IR 0; LM 0; Sys 0.

UGUACGGCCG (pool 0.301) gave IR 0.0886; LM 0.00773; Sys 0. For UUUGCGCACG (pool 0.118) the result was IR 0.0715; LM 0.0169; Sys 0. With GGACCGCGUG (pool 0.0131) the assay gave IR 0.525; LM 0.0816; Sys 0.0408. UCGCCGAUUG (pool 0.327) read IR 0.0895; LM 0; Sys 0. For UUUGCGUUAU (pool 0.0131) the result was IR 0; LM 0; Sys 0. With UCGACGCUAG (pool 0.144) the assay gave IR 0.118; LM 0.00920; Sys 0. For UCCACGAUAG (pool 0.144) the result was IR 0.113; LM 0.0696; Sys 0.

With UUUCCGAUUG (pool 0.445) the assay gave IR 0.138; LM 0.0316; Sys 0.116. UAAACGACGG (pool 0.105) read IR 0.0654; LM 0.00920; Sys 0. UGUGCGGGUG (pool 0.183) gave IR 0.0955; LM 0; Sys 0. UGGUCGUCUG (pool 0.366) read IR 0.0839; LM 0; Sys 0. UAUUCGGUCG (pool 0.536) read IR 0.125; LM 0; Sys 0.

3 of these entries, quoted again:

- UGCUCGUAUG (pool 0.288) -> IR 0.101; LM 0.0736; Sys 0
- UUUGCGCACG (pool 0.118) -> IR 0.0715; LM 0.0169; Sys 0
- UGAGCGUACG (pool 0.222) -> IR 0.0483; LM 0; Sys 0

The authors trace changes outside the varied positions to PCR and sequencing errors or to mutation in the plant; presence does not show that a variant is infectious alone.
Samples held 36,220 to 57,551 reads, so the smallest values rest on one or two reads.
For reference, wild type rose from 20.7 per thousand in the pool to 195, 198, 203 (inoculated region), 629, 591, 734 (leaf margin) and 942, 870, 868 (systemic leaves).

The measurements come from Wu et al. 2024 (doi:10.1371/journal.ppat.1012142).